From patent publication US7402610B2, “Carbonyl compound containing long-chain branched alkyl group” (Idemitsu Kosan Co., Ltd., priority 2004, dated 2008)

Test system: activated sludge
Test: Evaluation of biodegradability, JIS K6950, BOD tester
Details: sample concentration 100 ppm, activated sludge 30 ppm, 25° C., 28 days

Compound | Biodegradation (%)
2-octyldodecyl isostearate [Comparative Example 3, reference compound] | 39.5%
CCCCC(CC)C(=O)OC (centres unmarked) [Comparative Example 1, methyl 2-ethylhexanoate, reference compound] | 25.7%
CCCCCCCCCCC(CCCCCCCC)CC(=O)OC (centres unmarked) [Example 1, methyl 3-octyl-tridecanoate] | 52.3%
CCCCCCCCCCC(CCCCCCCC)CC(=O)O (centres unmarked) [Example 2, 3-octyl-tridecanoic acid] | 62.7%
CCCCCCCCCCC(CCCCCCCC)COC(=O)CC(CCCCCCCC)CCCCCCCCCC (centres unmarked) [Example 5, 2-octyldodecyl 3-octyl-tridecanoate] | 50.1%
